Pooled drug test results. Numbers come from NIAID ChemDB, via PubChem.

All rows: tests in culture; organism: Mycobacterium tuberculosis

An empty or dashed field is not shown. MIC50, MIC90 and the like: level of inhibition, or share of isolates inhibited. Inhibition is in % at the dose shown (toxicity tests: loss of growth or viability). Two numbers with a dash give a range or band. MIC bound comes from a single tested concentration. Conditions beyond the fields shown may differ between rows. ECn: concentration that inhibits the pathogen or its effect by n%.

SMILES | strain | method | changes | measure | tested at | conditions | cell line | result
Cc1[nH]n(-c2ccccc2)c(=O)c1Sc1ccc(Cl)cc1Cl | H37Rv-MA | fluorescence | - | MIC | - | - | - | >125 µM
Cc1ncc([N+](=O)[O-])n1CCNS(=O)(=O)CCCn1ncnc1[N+](=O)[O-] | H37Rv | resazurin | - | MIC bound | - | - | - | >6.25 µg/mL
COC(=O)c1c(C)cc(O)cc1O | H37Rv (ATCC 27294) | - | - | MIC | - | - | - | >128 µg/mL
CCc1ccccc1NC(=O)c1c(C)n([O-])c2ccc(C(F)(F)F)cc2[n+]1=O | H37Rv | resazurin | - | EC90 | - | - | VERO | 1.153 µg/mL
CCN1C(NNC(=O)c2ccncc2)=NS(=O)(=O)c2ccccc21 | Clinical isolates drug-sensitive | - | - | MIC | - | - | - | >16 µg/mL
CCc1ccccc1NC(=O)c1c(C)n([O-])c2cc(Cl)c(Cl)cc2[n+]1=O | H37Rv | resazurin | - | EC90 | - | - | VERO | <0.19 µg/mL
COc1ccc(-c2nc3sc(C)nn3c2COCc2cn(C#N)nn2)cc1 | H37Rv | agar | - | MIC | - | - | - | 50 µg/mL
COc1cc(O)c2c(=O)c3cc(OC)c(OC)cc3oc2c1 | - | - | - | MIC | - | - | - | 100 µg/mL
CC(=O)/C(N=Nc1ccc(-c2nnc(Nc3ccc(F)cc3)s2)cc1)=C(\C)O | H37Rv | BACTEC | - | inhibition | 6.25 µg/mL | - | - | 0%
CCCCCCCCCCCCCCCC(=O)OCCc1ccc(OC)cc1 | H37Rv (ATCC 27294) | - | - | MIC | - | - | - | >128 µg/mL
NC(=O)c1nccnc1NCc1ccc(C(F)(F)F)cc1 | H37Rv | resazurin / fluorescence | - | MIC | - | - | - | 12.5 µg/mL
Nc1c2ccccc2c[n+]2ccccc12 | H37Rv | BACTEC | - | MIC bound | - | - | - | >6.25 µg/mL
O=C(NCc1ccccc1)c1cc(C2C3CC4CC(C3)CC2C4)c2ccccc2n1 | H37Ra | BACTEC | - | MIC | - | - | - | 3.125 µg/mL
CCc1c2c(nc3ccc(OCc4ccc(F)cc4C(F)(F)F)cc13)-c1cc3c(c(=O)n1C2)COC(=O)C3(O)CC | XDR | resazurin | Extensively drug-resistant | MIC | - | - | - | 11 µM
Cc1ccc(C(=O)Nc2nc(C)cc(C)n2)c(O)c1 | My 331/88 | - | - | MIC | - | - | - | 62.5 µM
CC(C)(C)N1OC1c1ccc([N+](=O)[O-])o1 | H37Rv | BACTEC | - | MIC bound | - | - | - | >12.5 µg/mL
CC1(C)CCc2c(c3ccccc3c3[nH]c(-c4c[nH]c5ccccc45)nc23)O1 | H37Rv | resazurin | - | MIC | - | - | - | 1.56 µg/mL
CCCCCCCCCCCCCCCCCCC(=O)OCCc1ccc(OC)cc1 | H37Rv (ATCC 27294) | - | - | MIC | - | - | - | >128 µg/mL
O=NNc1cnccn1 | H37Rv | BACTEC | - | inhibition | 12.5 µg/mL | - | - | -19%
C=C1CCCC(C)(C)[C@@H]1CC/C(C)=C/CC/C(C)=C/CO | - | - | - | inhibition | 6.25 µg/mL | - | - | 36%
CC(=O)/C(N=Nc1ccc(-c2nnc(Nc3ccccc3)s2)cc1)=C(\C)O | H37Rv | BACTEC | - | inhibition | 6.25 µg/mL | - | - | 0%
COc1cccc2c(=O)c3c(OC4OC(CO)C(O)C(O)C4O)cc(O)cc3oc12 | - | - | - | MIC | - | - | - | >200 µg/mL
NC(=O)c1nccnc1NCc1ccc(N)cc1 | H37Rv | resazurin / fluorescence | - | MIC | - | - | - | 6.25 µg/mL
NNC(=O)c1ccncc1 | 38 strains | - | - | MIC50 | - | - | - | 0.39 µg/mL
CCCCNC(=O)c1cc(C2C3CC4CC(C3)CC2C4)c2ccccc2n1 | H37Ra | BACTEC | - | MIC | - | - | - | >6.25 µg/mL
Cc1ccnc(NC(=O)c2cc(Cl)ccc2O)n1 | My 331/88 | - | - | MIC | - | - | - | 250 µM
COc1ccc(C(OC[C@H](O)CNCCNC[C@@H](O)COC(c2ccc(OC)c(OC)c2)c2ccc(OC)c(OC)c2)c2ccc(OC)c(OC)c2)cc1OC | H37Rv | - | - | MIC | - | - | - | 12.5 µg/mL
COc1cc(O)c2c(=O)c3cc(OC4OC(CO)C(O)C(O)C4O)c(O)c(OC)c3oc2c1 | - | - | - | MIC | - | - | - | 100 µg/mL
O=C1c2ccccc2C(=O)C2(C(c3ccccc3)c3ccccc3)N=NCC12 | H37Rv | resazurin | - | inhibition | 6.25 µg/mL | - | - | 13%
NNC(=O)c1cc(C2CCCCC2)c2c(C3CCCCC3)cccc2n1 | H37Ra | BACTEC | - | inhibition | 6.25 µg/mL | - | - | 91%
Nc1nc2c(c(-c3ccc(Cl)cc3)n1)CN(CCC(=O)O)C2=O | H37Rv | BACTEC | - | MIC | - | - | - | ≥12.8 µg/mL
O=C(Nn1cncn1)c1ccccc1O | My 331/88 | - | - | MIC | - | - | - | 1000 µM
CN1C(NNC(=O)c2cnccn2)=NS(=O)(=O)c2ccc(Cl)cc21 | H37Rv (ATCC 27294) | - | - | MIC | - | - | - | >16 µg/mL
CC1(C)CCc2c(c3ccccc3c3[nH]c(-c4ccccc4)nc23)O1 | H37Rv | resazurin | - | MIC | - | - | - | >100 µg/mL
C=CCN(CCNC/C=C(\C)CCC=C(C)C)C1CCCC1 | H37Rv | - | - | MIC | - | - | - | 15.6 µM
CCCNc1nnc(-c2ccc(NC(=S)Nc3ccccc3)cc2)s1 | H37Rv | BACTEC | - | inhibition | 6.25 µg/mL | - | - | 6%
COc1ccccc1-n1cc(C(F)F)nn1 | H37Rv | - | - | MIC | - | - | - | 40 µg/mL
C[N+](C)(C)CCCN1c2ccccc2S(=O)c2ccc(Cl)cc21.[I-] | H37Rv | BACTEC | - | inhibition | 12.5 µg/mL | - | - | -5%
CN1C(NNC(=O)c2cccnc2)=NS(=O)(=O)c2ccc(Cl)cc21 | Clinical isolates drug-sensitive | - | - | MIC | - | - | - | 4–8 µg/mL
CCc1c2c(nc3ccc(OCc4ccccc4)cc13)-c1cc3c(c(=O)n1C2)COC(=O)C3(O)CC | XDR | resazurin | Extensively drug-resistant | MIC | - | - | - | 25.9 µM
CCOC(=O)N1CC(C)N(C(=O)OCC)CC1C | H37Rv | BACTEC | - | MIC | - | - | - | ≥12.5 µg/mL
C=C(COC(C)=O)C1Cc2cc(O)c(C(C)=O)cc2O1 | H37Rv (ATCC 27294) | - | - | MIC | - | - | - | 64 µg/mL
COc1cc(Cl)c(/C=N/NC(=O)c2cccnc2)c(Cl)c1 | - | - | - | MIC | - | - | - | 10 µg/mL
COc1cc(O)c2c(=O)c3ccc(O)c(OC)c3oc2c1 | - | - | - | MIC | - | - | - | 100 µg/mL
Cc1ccc(Nc2nnc(-c3ccc(N)cc3)s2)cc1 | H37Rv | BACTEC | - | inhibition | 6.25 µg/mL | - | - | 22%
Cc1ccnc(NC(=O)c2ccc(Cl)cc2O)n1 | My 331/88 | - | - | MIC | - | - | - | 62.5 µM
NNC(=O)c1cc(C2C3CC4CC(C3)CC2C4)nc2ccccc12 | H37Ra | BACTEC | - | MIC | - | - | - | >6.25 µg/mL
CCCCOc1ccc(/C=N/NC(=O)c2ccncc2)cc1 | - | - | - | MIC | - | - | - | 1 µg/mL
CC(C)N1C(NNC(=O)c2cnccn2)=NS(=O)(=O)c2ccccc21 | H37Rv (ATCC 27294) | - | - | MIC | - | - | - | >16 µg/mL
CCc1ccccc1NC(=O)c1c(C)n([O-])c2cc(F)c(F)cc2[n+]1=O | H37Rv | resazurin | - | EC90 | - | - | VERO | 0.517 µg/mL
CNc1nnc(-c2ccc(N)cc2)s1 | H37Rv | BACTEC | - | inhibition | 6.25 µg/mL | - | - | 29%
C=C(NC(=O)C(=C)NC(=O)c1csc(C2=N[C@@H]3c4csc(n4)[C@H]4NC(=O)c5csc(n5)[C@H]([C@](C)(O)[C@@H](C)O)NC(=O)C5CSC(=N5)/C(=C/C)NC(=O)[C@H]([C@@H](C)O)NC(=O)c5csc(n5)[C@]3(CC2)NC(=O)C(C)NC(=O)C(=C)NC(=O)C(C)NC(=O)C(C(C)CC)NC2C=Cc3c([C@H](C)O)cc(nc3[C@H]2O)C(=O)O[C@@H]4C)n1)C(N)=O | H37Rv | resazurin | - | MIC bound | - | - | - | >6.25 µg/mL
CC1COc2c(N3CCN(C(N)=NC#N)CC3)c(F)cc3c(=O)c(C(=O)O)cn1c23 | ATCC 35830 | broth dilution | - | MIC | - | - | - | 0.312 µg/mL
CC(=O)Oc1ccc(/C=N/NC(=O)c2ccncc2)cc1 | - | - | - | MIC | - | - | - | 1 µg/mL
CC(C)=CCNc1ncnc2c1c(C#N)cn2[C@@H]1O[C@H](CO)[C@@H](O)[C@H]1O | H37Rv | resazurin | - | inhibition | 6.25 µg/mL | - | - | 16%
Cc1onc(-c2ccccc2Cl)c1C(=O)N[C@@H]1C(=O)N2[C@@H]1SC(C)(C)[C@@H]2C(=O)O | Gordon | colony count | - | inhibition | 5 µg/mL | 21 d | - | 100%
O=C(N/N=C/c1ccncc1)c1ccncc1 | - | - | - | MIC | - | - | - | 0.1 µg/mL
N#CCCSC(=S)N1CCCC1=O | H37Rv | BACTEC | - | inhibition | 128 µg/mL | - | - | 100%
NNC(=O)Cc1cc(C2C3CC4CC(C3)CC2C4)nc2ccccc12 | H37Ra | BACTEC | - | inhibition | 6.25 µg/mL | - | - | 31%
CO[C@@H]1[C@@H](OC(=O)c2ccc(C)[nH]2)[C@@H](O)C(Oc2ccc3c(O)c(NC(=O)c4c[nH]c(C(=O)Nc5c(O)c6ccc(OC7OC(C)(C)[C@H](OC)[C@@H](OC(=O)c8ccc(C)[nH]8)[C@H]7O)c(C)c6oc5=O)c4C)c(=O)oc3c2C)OC1(C)C | TAC-R | - | - | MIC | - | - | - | 3.2 µg/mL
COc1cccc(/C=N/NC(=O)c2ccncc2)c1 | - | - | - | MIC | - | - | - | 0.1 µg/mL
Cc1nn(C(=O)c2ccncc2)c(-c2ccccc2)c1N=Nc1nc2ccc([N+](=O)[O-])cc2s1 | H37Rv | - | - | MIC | - | - | VERO | 1.56 µg/mL
COc1ccc(O)c2c(=O)c3c(O)cc(O)cc3oc12 | - | - | - | MIC | - | - | - | 200 µg/mL
Nc1nc(N)c(C(=O)SCc2ccccc2)nc1Cl | H37Rv | BACTEC | - | MIC bound | - | - | - | >12.5 µg/mL
Cc1ccc(C(=O)Nc2nc3ccccc3s2)c(O)c1 | My 331/88 | - | - | MIC | - | - | - | 8 µM
Cc1ccc2c(c1)N(CCCN1CC[N+](C)(C)CC1)c1ccccc1S2.[I-] | H37Rv | BACTEC | - | MIC bound | - | - | - | >12.5 µg/mL
CN1C(NNC(=O)c2cnccn2)=NS(=O)(=O)c2ccccc21 | H37Rv (ATCC 27294) | - | - | MIC | - | - | - | 0.5 µg/mL
Cc1c(C(=O)NCc2ccccc2)[n+](=O)c2cc(Cl)c(Cl)cc2n1[O-] | H37Rv | resazurin | - | EC90 | - | - | VERO | <0.2 µg/mL
NNC(=O)c1cc(C2CCCC2)c2c(C3CCCC3)cccc2n1 | H37Ra | BACTEC | - | inhibition | 6.25 µg/mL | - | - | 90%
CCN1C(NNC(=O)c2cccnc2)=NS(=O)(=O)c2ccccc21 | H37Rv (ATCC 27294) | - | - | MIC | - | - | - | >16 µg/mL
CCS(=O)(=O)c1ccc(/C=N/NC(=O)c2ccncc2)cc1 | - | - | - | MIC | - | - | - | 0.1 µg/mL
CCCCCCCCCCCCCCCCCC(=O)OCCc1ccc(O)cc1 | H37Rv (ATCC 27294) | - | - | MIC | - | - | - | >128 µg/mL
C/C(CCC(=O)O)=N\NC(=O)c1cccnc1 | - | - | - | MIC | - | - | - | 100–1000 µg/mL
COc1ccc2cc1-c1cc(ccc1O)C[C@H]1c3cc4c(cc3CCN1C)Oc1c(OC)cc3c(c1O4)[C@H](C2)N(C)CC3 | PZA-R | - | - | MIC | - | - | - | 3.1 µg/mL
CO[C@H]1/C=C/O[C@@]2(C)Oc3c(C)c(O)c4c(O)c(c(/C=N/N5CCN(C)CC5)c(O)c4c3C2=O)NC(=O)/C(C)=C\C=C\[C@H](C)[C@H](O)[C@@H](C)[C@@H](O)[C@@H](C)[C@H](OC(C)=O)[C@@H]1C | H37Rv | - | - | MBC | - | - | - | >160 µg/mL
CC1CCC2C(C1)c1c(c3ccccc3c3nc4ccccc4nc13)OC2(C)C | ATCC 35338 | resazurin | - | MIC | - | - | - | 6.25 µg/mL
CC(=O)Nc1c(OC(C)=O)nc2ccc([N+](=O)[O-])cc2c1-c1ccccc1 | H37Rv | - | - | MIC | - | - | - | >6.25 µg/mL
O=C(N/N=C/c1ccc(Cl)cc1Cl)c1ccncc1 | - | - | - | MIC | - | - | - | 0.1 µg/mL
Cl.Cl.O=C(Nc1cccc(C(=O)Nc2ccc(C3=NCCN3)cc2)c1)c1ccc(C2=NCCN2)cc1 | H37Rv | BACTEC | - | MIC | - | - | VERO | 12.5 µg/mL
O=c1c2ccc(O)c(O)c2oc2cc(O)cc(O)c12 | - | - | - | MIC | - | - | - | 10 µg/mL
C/C=C/c1noc2c1C(=O)OC(C)C2 | H37Rv | BACTEC | - | MIC bound | - | - | - | >12.5 µg/mL
CCc1c2c(nc3ccc(OCc4cccc(F)c4)cc13)-c1cc3c(c(=O)n1C2)COC(=O)C3(O)CC | XDR | resazurin | Extensively drug-resistant | MIC | - | - | - | 49.94 µM
COC(=O)C1=COC(C)C2CN3CCc4c([nH]c5cc(OC)c(OC)cc45)C3CC12.O=C(O)CC(O)(CC(=O)O)C(=O)O | H37Rv | BACTEC | - | inhibition | 12.8 µg/mL | - | - | 10%
NC(=O)c1cc(C2C3CC4CC(C3)CC2C4)c2ccccc2n1 | H37Ra | BACTEC | - | MIC | - | - | - | 6.25 µg/mL
CN1C(=O)NC2(C1=O)C(=O)N(C)C(=O)N2C | H37Rv | BACTEC | - | inhibition | 12.8 µg/mL | - | - | 11%
CCCCCCCCCCCCCCCCC(=O)OCCc1ccc(OC)cc1 | H37Rv (ATCC 27294) | - | - | MIC | - | - | - | >128 µg/mL
CCCNC(=O)c1cc(C2C3CC4CC(C3)CC2C4)c2ccccc2n1 | H37Ra | BACTEC | - | MIC | - | - | - | >6.25 µg/mL